Pooled drug test results. Numbers come from NIAID ChemDB, via PubChem.

Common to all: cytotoxicity tests; cell line: MT-4; measure: CC50

Conditions beyond the fields shown may differ between rows.

SMILES,method,value
CC(C)CCC[C@@H](C)[C@H]1CC[C@H]2[C@@H]3CC[C@H]4C[C@@H](CCC=C(c5cc(Cl)c(OCc6ccc(C(=O)O)cc6)c(C(=O)O)c5)c5cc(Cl)c(OCc6ccc(C(=O)O)cc6)c(C(=O)O)c5)CC[C@]4(C)[C@H]3CC[C@]12C,,95 µM
CC(C)c1c(Cl)nc(Nc2ccc(C#N)cc2)nc1Oc1ccc2cc(C#N)ccc2c1,MTT,284 µM
C#CCNC(=O)C#Cc1cnc(Nc2ccc(C#N)cc2)nc1Oc1c(C)cc(C#N)cc1C,MTT,7.02 µM
N#Cc1ccc(Nc2nccc(Oc3cc4ccc(C#N)cc4cc3Br)n2)cc1,MTT,>56.53 µM
CCOCn1c(Cc2cccc(OCC3CO3)c2)c(CC)c(=O)[nH]c1=O,MTT,80 µM
CNc1nc(Nc2ccc(C#N)cc2)nc(Oc2ccc3cc(C#N)ccc3c2)c1C(C)C,MTT,>288 µM
CCc1c(Cc2cc(C)cc(C)c2)n(COCC#Cc2cccc(C=O)c2)c(=O)[nH]c1=O,MTT,42 µM
O=C1CSC(=Nc2cccc(C(F)(F)F)c2)N1c1ccc(F)c(Cl)c1,MTT / absorbance,>100 µM
NC(=O)c1[nH]c2ccc(Cl)cc2c1S(=O)(=O)CC1CC(F)(F)C1(F)F,microscopy,>10 µM
Cc1ccc(C(=O)Nc2ccc(S(=O)(=O)O)c3cc(S(=O)(=O)O)cc(S(=O)(=O)O)c23)cc1NC(=O)c1cccc(NC(=O)c2ccc(C(=O)Nc3cccc(C(=O)Nc4cc(C(=O)Nc5ccc(S(=O)(=O)O)c6cc(S(=O)(=O)O)cc(S(=O)(=O)O)c56)ccc4C)c3)cc2)c1,,>50 µg/mL
C=CCOc1cccc(Cc2c(CC)c(=O)[nH]c(=O)n2COCC)c1,MTT,65 µM
N#Cc1c([N+](=O)[O-])c(-c2ccccc2)n(COCCO)c1-c1ccccc1,MTT,>300 µM
O=C(/C=C/c1ccc(O)cc1)c1ccccc1O,MTT,178 µM
CCOC(=O)c1[nH]c2ccc(Cl)cc2c1SCCCC(F)(F)F,microscopy,>10 µM
COc1cc2nc(S(=O)CC(=O)Nc3ccccc3F)nc(Nc3c(Cl)cc(/C=C/C#N)cc3Cl)c2cc1OC,MTT,>208 µM
CCc1c(NC)nc(Nc2ccc(C#N)cc2)nc1Oc1ccc2cc(C#N)ccc2c1Br,MTT,28.16 µM
C=CCCc1cccc(Cc2c(CC)c(=O)[nH]c(=O)n2COCC)c1,MTT,55 µM
Cc1ccc(C(=O)Nc2cc(S(=O)(=O)O)ccc2S(=O)(=O)O)cc1NC(=O)c1cccc(NC(=O)Nc2cccc(C(=O)Nc3cc(C(=O)Nc4cc(S(=O)(=O)O)ccc4S(=O)(=O)O)ccc3C)c2)c1,,>500 µg/mL
C=CCOc1cccc(Cc2nc(SC(C)C)nc(OC(C)C)c2CC)c1,MTT,>100 µM
COc1cc2nc(S(=O)CC(=O)Nc3cccc(C#N)c3)nc(Nc3c(Cl)cc(/C=C/C#N)cc3Cl)c2cc1OC,MTT,>70.3 µM
CCc1c(Cl)nc(Nc2ccc(C#N)cc2)nc1Oc1ccc2cc(C#N)ccc2c1Br,MTT,167 µM
CCOCn1c(Cc2cccc(OCC=NO)c2)c(CC)c(=O)[nH]c1=O,MTT,>100 µM
O=C(Nc1cccc(C(=O)Nc2ccc(C(=O)Nc3cc(S(=O)(=O)O)cc4cc(S(=O)(=O)O)cc(S(=O)(=O)O)c34)cc2)c1)Nc1cccc(C(=O)Nc2ccc(C(=O)Nc3cc(S(=O)(=O)O)cc4cc(S(=O)(=O)O)cc(S(=O)(=O)O)c34)cc2)c1,,>50 µg/mL
Cc1ccc(-c2nnc3sc(CC45CC6CC(CC(C6)C4)C5)nn23)cc1,MTT,>125 µg/mL
Cc1ccc(C(=O)Nc2cc(C(=O)Nc3cc(C(=O)Nc4ccc(S(=O)(=O)O)c5cc(S(=O)(=O)O)cc(S(=O)(=O)O)c45)ccc3C)ccc2C)cc1NC(=O)Nc1cc(C(=O)Nc2cc(C(=O)Nc3cc(C(=O)Nc4ccc(S(=O)(=O)O)c5cc(S(=O)(=O)O)cc(S(=O)(=O)O)c45)ccc3C)ccc2C)ccc1C,,>50 µg/mL
CCOC(=O)c1c(Br)c(-c2ccccc2)n(COCCO)c1-c1ccccc1,MTT,64 µM
CCc1c(Cc2cc(C)cc(C)c2)n(COCC#Cc2ccc(O[Si](c3ccccc3)(c3ccccc3)C(C)(C)C)cc2)c(=O)[nH]c1=O,MTT,>100 µM
CCc1c(Cl)nc(Nc2ccc(C#N)cc2)nc1Oc1ccc2cc(Br)ccc2c1Br,MTT,224 µM
FC(F)(F)c1cccc(-n2nnnc2Nc2ccc(Cl)cc2)c1,MTT / absorbance,48 µM
CC(=O)OCCOCn1c(-c2ccccc2)c(-c2ccccc2)c([N+](=O)[O-])c1-c1ccccc1,MTT,>300 µM
Brc1ccc(-c2nnc3sc(CC45CC6CC(CC(C6)C4)C5)nn23)cc1,MTT,>125 µg/mL
C#CCNC(=O)/C=C/c1cnc(Nc2ccc(C#N)cc2)nc1Oc1c(C)cc(C#N)cc1C,MTT,141 µM
Nc1ccn([C@H]2CC[C@@H](CO)O2)c(=O)n1,,29 µg/mL
FC(F)(F)c1cccc(-n2nnnc2Nc2ccc(Cl)c(Cl)c2)c1,MTT / absorbance,45 µM
Cc1c(Oc2ccnc(Nc3ccc(C#N)cc3)n2)ccc2ccccc12,MTT,>70.94 µM
O=C1CSC(=Nc2cccc(C(F)(F)F)c2)N1c1ccc(Cl)c(Cl)c1,MTT / absorbance,>100 µM
Cc1ncn(Nc2cccc(Cl)c2)c1C,,214 µM
CC(C)c1c(Cl)nc(Nc2ccc(C#N)cc2)nc1Oc1ccc2ccccc2c1Br,MTT,30.58 µM
CC(C)CCS(=O)(=O)c1c(C(=O)NCc2[nH]nc3ccccc23)[nH]c2ccc(Cl)cc12,microscopy,>10 µM
Cc1ncn(Nc2cccc(Cl)c2)c1-c1cccc(Br)c1,,16.41 µM
Nc1ccn([C@H]2CC[C@@H](CO)O2)c(=O)n1,,80 µM
Cc1cc(/C=C/C#N)cc(C)c1Nc1ccnc(Nc2ccc(C#N)cc2)n1,MTT,4.38 µM
Cc1c(Sc2ccccc2)n(C/C=C/C2CCCCC2)c(=O)[nH]c1=O,,>1 µM
Cc1cc(C#N)cc(C)c1Oc1nc(Nc2ccc(C#N)cc2)ncc1SCC(=O)NCCCN1CCOCC1,MTT,23.6 µM
Cc1[nH]c(=S)n(Nc2cccc(Br)c2)c1-c1ccccc1,,44.24 µM
Cc1c(Sc2ccccc2)n(C/C=C/c2cccnc2)c(=O)[nH]c1=O,,>1 µM
CCc1c(Cc2cc(C)cc(C)c2)n(COCC#Cc2cnccn2)c(=O)[nH]c1=O,MTT,30 µM
Brc1ccccc1-c1nnc2sc(CC34CC5CC(CC(C5)C3)C4)nn12,MTT,>24.7 µg/mL
COc1ccc(C(=O)/C=C/c2ccc(O)cc2)c(O)c1,MTT,38.78 µM
CCc1[nH]c(=S)n(Nc2cccc(Cl)c2)c1-c1ccccc1,,38.96 µM
COc1cc2nc(S(=O)CC(=O)Nc3cccc([N+](=O)[O-])c3)nc(Nc3c(Cl)cc(/C=C/C#N)cc3Cl)c2cc1OC,MTT,>83.2 µM
CC(=O)OCCOCn1c(-c2ccccc2)c(Br)c(-c2ccccc2)c1-c1ccccc1,MTT,16 µM
O=C(/C=C/c1ccc(Cl)cc1)c1ccccc1O,MTT,200 µM
CCOC(=O)c1[nH]c2ccc(Cl)cc2c1S(=O)(=O)CCCC(F)(F)F,microscopy,>10 µM
CNc1cc(Oc2ccc3cc(Br)ccc3c2)nc(Nc2ccc(C#N)cc2)n1,MTT,182 µM
CCOC(=O)c1[nH]c2ccc(Cl)cc2c1S(=O)(=O)C1CCC1,microscopy,>10 µM
COC(=O)C1CCC(NC(=O)C#Cc2cnc(Nc3ccc(C#N)cc3)nc2Oc2c(C)cc(C#N)cc2C)CC1,MTT,11.5 µM
Cc1c(Sc2ccccc2)n(COCCNC(=O)c2ccccc2)c(=O)[nH]c1=O,,>1 µM
CCc1c(Cc2cc(C)cc(C)c2)n(COCC#Cc2ccccc2C(F)(F)F)c(=O)[nH]c1=O,MTT,25 µM
[N-]=[N+]=Nc1c(-c2ccccc2)c(-c2ccccc2)n(COCCO)c1-c1ccccc1,MTT,65 µM
C=CCOc1cccc(Cc2[nH]c(=O)c(CC)c(O)c2CC)c1,MTT,77 µM
CCc1c(Cc2cc(C)cc(C)c2)n(COCC#Cc2ccc(NC(=O)CBr)cc2)c(=O)[nH]c1=O,MTT,39 µM
Cc1nc2sc3c(c2c(Sc2ccccc2)c1C(OC(C)(C)C)C(=O)O)CCCC3,MTT,105 µM
Nc1nc2c(ncn2[C@@H]2O[C@H](CO)[C@H](F)[C@H]2O)c(=O)[nH]1,,>490 µM
COc1ccc(C(=O)/C=C/c2ccc(OC)c(OC)c2)c(O)c1,MTT,370 µM
CCc1c(Cc2cc(C)cc(C)c2)n(COC/C(Br)=C(\Br)c2ccccc2)c(=O)[nH]c1=O,MTT,36 µM
Cc1c(Sc2ccccc2)n(COCCSc2ccccn2)c(=O)[nH]c1=O,,>1 µM
CCOCn1c(Cc2cccc(OCC=O)c2)c(CC)c(=O)[nH]c1=O,MTT,45 µM
Cc1cc(C)cc(Nn2c(-c3ccccc3)c(C)[nH]c2=S)c1,,194 µM
Cc1cc(C#N)cc(C)c1Oc1nc(Nc2ccc(C#N)cc2)ncc1C#CC(=O)NCCN1CCOCC1,MTT,>240 µM
Clc1cccc(-c2nnc3sc(CC45CC6CC(CC(C6)C4)C5)nn23)c1,MTT,>125 µg/mL
COC(=O)c1[nH]c(=S)n(Nc2cccc(Cl)c2)c1C,,48.8 µM

A second listing of 4 rows from above:

SMILES,method,value
Cc1c(Oc2ccnc(Nc3ccc(C#N)cc3)n2)ccc2ccccc12,MTT,>70.94 µM
N#Cc1c([N+](=O)[O-])c(-c2ccccc2)n(COCCO)c1-c1ccccc1,MTT,>300 µM
CCc1c(Cc2cc(C)cc(C)c2)n(COCC#Cc2ccccc2C(F)(F)F)c(=O)[nH]c1=O,MTT,25 µM
CCOC(=O)c1[nH]c2ccc(Cl)cc2c1SCCCC(F)(F)F,microscopy,>10 µM

CCn: concentration that lowers growth or viability of the cells by n%. An empty or dashed field is not shown.